According to publication PMC3546862, “Assessing the utility of an anti-malarial pharmacokinetic-pharmacodynamic model for aiding drug clinical development” (Malaria Journal, 2012):

test: Scalar for adjusting in vitro IC50 to whole blood; settings: (100 - BM)/100 x 100/(100 - HPPB) x HWB

Compound | Scalar (adjusted)
CO[C@H]1O[C@@H]2O[C@@]3(C)CC[C@H]4[C@H](C)CC[C@@H]([C@H]1C)[C@@]24OO3 [ART, artemether] | 1.66
CCCCN(CCCC)CC(O)c1cc(Cl)cc2c1-c1ccc(Cl)cc1/C2=C/c1ccc(Cl)cc1 (stereo not drawn) [LF, lumefantrine] | 0.25
Clc1ccc2c(N3CCN(CCCN4CCN(c5ccnc6cc(Cl)ccc56)CC4)CC3)ccnc2c1 [PQ, piperaquine] | 1.22
